Results: publication PMC6498484
For some assays here: Tags and fusion partners may be left off the protein sequences shown. For some assays here: Construct, isoform or probe ends are uncertain for at least one entry. For some assays here: At least one verdict was read from the data and is not stated in words by the source.

Experiments:
Assay in all cases: EMSA
[1] = target: T1, PoxCxrA17-150 (Penicillium oxalicum HP7-1) (UniProt A0A2H4WV05); conditions: EMSA: 20 mM Tris-HCl pH 8.0, 50 mM KCl, 0.1 mg/mL BSA, 5% glycerol, 1 mM DTT, 1 ug salmon sperm DNA, ~50 ng probe, 30 min at 30 C, footprinting at 30 C, recombinant protein, residues 17-150, protein details: N-terminal Trx-His-S (pET32a), probe letters rebuilt from the primers and the genome
T1 sequence (looked up): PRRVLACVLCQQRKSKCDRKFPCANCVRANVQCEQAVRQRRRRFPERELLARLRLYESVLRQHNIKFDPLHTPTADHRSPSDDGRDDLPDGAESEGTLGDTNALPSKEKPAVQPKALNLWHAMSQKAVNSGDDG

[2] = target: T2, PoxClrB1-120 (Penicillium oxalicum HP7-1) (UniProt A0A1C9J6R8); conditions: EMSA: 20 mM Tris-HCl pH 8.0, 50 mM KCl, 0.1 mg/mL BSA, 5% glycerol, 1 mM DTT, 1 ug salmon sperm DNA, ~50 ng probe, 30 min at 30 C; footprinting at 30 C; recombinant protein; residues 1-120; protein details: Trx-His-S (pET32a); label: 6-FAM; probe letters rebuilt from the primers and the genome
T2 sequence (looked up): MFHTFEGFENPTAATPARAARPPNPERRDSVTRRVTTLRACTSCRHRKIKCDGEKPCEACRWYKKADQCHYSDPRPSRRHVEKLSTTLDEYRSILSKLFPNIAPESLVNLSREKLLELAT

[3] = target: T3, PoxCxrA11-150 (Penicillium oxalicum HP7-1) (UniProt A0A2H4WV05); conditions: EMSA: 20 mM Tris-HCl pH 8.0, 50 mM KCl, 0.1 mg/mL BSA, 5% glycerol, 1 mM DTT, 1 ug salmon sperm DNA, ~50 ng probe, 30 min at 30 C; footprinting at 30 C; recombinant protein; residues 11-150; protein details: Trx-His-S (pET32a); label: 6-FAM; probe letters rebuilt from the primers and the genome
T3 sequence (looked up): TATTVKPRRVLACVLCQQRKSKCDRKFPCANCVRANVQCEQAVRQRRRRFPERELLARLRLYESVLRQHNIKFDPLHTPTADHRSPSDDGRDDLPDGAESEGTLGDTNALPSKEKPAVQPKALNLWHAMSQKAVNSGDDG

[4] = target: T4, PoxCxrA11-58 (Penicillium oxalicum HP7-1) (UniProt A0A2H4WV05); conditions: EMSA: 20 mM Tris-HCl pH 8.0, 50 mM KCl, 0.1 mg/mL BSA, 5% glycerol, 1 mM DTT, 1 ug salmon sperm DNA, ~50 ng probe, 30 min at 30 C; footprinting at 30 C; recombinant protein; residues 11-58; protein details: Trx-His-S (pET32a); label: 6-FAM; probe letters rebuilt from the primers and the genome
T4 sequence (looked up): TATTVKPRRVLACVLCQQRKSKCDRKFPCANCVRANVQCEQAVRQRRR

[5] = tested on: PoxCxrA17-150 + PoxClrB1-120; conditions: both proteins, larger complex than either alone; EMSA: 20 mM Tris-HCl pH 8.0, 50 mM KCl, 0.1 mg/mL BSA, 5% glycerol, 1 mM DTT, 1 ug salmon sperm DNA, ~50 ng probe, 30 min at 30 C; footprinting at 30 C; recombinant protein; protein details: N-terminal Trx-His-S (pET32a),Trx-His-S (pET32a); label: 6-FAM; probe letters rebuilt from the primers and the genome

| Sequence | binding result ([1]; label: 6-FAM) | binding result ([1]; label: 5' 6-FAM) | further results |
| --- | --- | --- | --- |
| AAGATGTGAGAAGGACCGTGATCCAGTCAGGAAAGAAGACCAGGACTCGAATGTATAGATGGGTTGAGAGTGGTGGAAGGAGGTCCAAGTAAAAATGTCTCAAAAAGAGCACTGCGCTGCAGATAAGACTCTTATTCGTGAAGAGAGATCGATGATAGAGAGAGAGATGATCAAGGAAACAACGTTGGAGGGGGACTTCCACGAGGTTTTAATACTCCAGAATTTGGGCCAAAAAAAAAGTTCAATTCCACCACAGCCCCCTCAAAAAGTTCCAAAAATCGAGAAAATAAAAATAAAAAAAATCCGACTACACAACTTCTCCTCAACTCCACGAACAACGTGGGTGAAAAGCACGACGGCCACCCCGGGGGGCCCCAAAGTGACCGAAACCAGAAAAACCAGAACAGCCTCGAAGCGTCTCCGCAATGCCCGCAATCCCCAGTTTCCATGACCGGCCCAACACGAGCGGACATCGAGTGGAGACTCCATACGACACCGATACAGTCGGTATGATTTCTCGGGGTCCATCGATTCCATACCGAGTGGATCATGTCGACCATTACACCGGATGATACACTGACCAGGTCACATGAGAGAGGAGAGCTATTGTTAGCCCCGTCGCCAGAGCGAAAGTGTGGAGTGTGCGAACCAGCCAAAGATGGACATCAGCCACTCTGATGGCCGGTCACGCCGTCCCCGACTGGCCGAGTGGAGCCGAGTTTCACAGCTCCCAGGAAAAAAAAACACGAAATACACAAAAAAAATCAAAAATACACAAATGGTCCAGAAGACTGATCAAAGGCCAGACCGTGCGAAGAAAAGATCCTATCAAAGCCTCTGCCTCGTGCGGGCTCACCAACGCCGTAGAGGGTCAACATTCCGCAAGCA (double strand) [POX07576/RCO-3 promoter] | binds | – | – |
| AGGAGACGAACAAATGAAAAACAGTTGGCCAACAATTCAACCAAGACCGGCTTCCCTGGAATTGCGGGGAGGGGAGAGTCGTGAAAGTGGATAAGGCTCCTTAATTTTTTTTTTCCCTTCCTCCTGGCCATCGTGTTTTATGGAGGTTCGCTTCCGTCTTGACTATCCGCCGTCGCACTCTTAGTCTCCCCGTTGACCCTCTTTTTCTTCACATCGTCAGATCGTGATCGTTGATCGTTCGGTGCTCTTCTGCTTCTTTTGCTGCTCACCTCCTCCTCCCCCCAGCTGAGTCCTTGTCGAGCTCATCCAC (double strand) [PoxClrB-310] | – | binds | – |
| AGGAGACGAACAAATGAAAAACAGTTGGCCAACAATTCAACCAAGACCGGCTTCCCTGGAATTGCGGGGAGGGGAGAGTCGTGAAAGTGGATAAGGCTCCTTAATTTTTTTTTTCCCTTCCTCCTGGCCATCGTGTTTTATGGAGGTTCGCTTCCGTCTTGACTATCCGCCGTCGCACTCTTAGTCTCCCCGTTGACCCTCTTTTTCTTCACATCGTCAGATCGTGATCGTTGATCGTTCGGTGCTCTTCTGCTTCTTTTGCTGCTCACCTCCTCCTCCCCCCAGCTGAGTCCTTGTCGAGCTCATCCACATCAAGCAACCCTGGTGGAG (double strand) [PoxClrB-330] | – | binds | – |
| AGGAGACGAACAAATGAAAAACAGTTGGCCAACAATTCAACCAAGACCGGCTTCCCTGGAATTGCGGGGAGGGGAGAGTCGTGAAAGTGGATAAGGCTCCTTAATTTTTTTTTTCCCTTCCTCCTGGCCATCGTGTTTTATGGAGGTTCGCTTCCGTCTTGACTATCCGCCGTCGCACTCTTAGTCTCCCCGTTGACCCTCTTTTTCTTCACATCGTCAGATCGTGATCGTTGATCGTTCGGTGCTCTTCTGCTTCTTTTGCTGCTCACCTCCTCCTCCCCCCAGCTGAGTCCTTGTCGAGCTCATCCACATCAAGCAACCCTGGTGGAGACCGGGTCCTCTTCTCCACCATCCA (double strand) [PoxClrB-355] | – | binds | – |
| AGGAGACGAACAAATGAAAAACAGTTGGCCAACAATTCAACCAAGACCGGCTTCCCTGGAATTGCGGGGAGGGGAGAGTCGTGAAAGTGGATAAGGCTCCTTAATTTTTTTTTTCCCTTCCTCCTGGCCATCGTGTTTTATGGAGGTTCGCTTCCGTCTTGACTATCCGCCGTCGCACTCTTAGTCTCCCCGTTGACCCTCTTTTTCTTCACATCGTCAGATCGTGATCGTTGATCGTTCGGTGCTCTTCTGCTTCTTTTGCTGCTCACCTCCTCCTCCCCCCAGCTGAGTCCTTGTCGAGCTCATCCACATCAAGCAACCCTGGTGGAGACCGGGTCCTCTTCTCCACCATCCATAGTGCCGAGTCCAACCCTC (double strand) [PoxClrB-375] | – | binds | – |
| CACTGTGTAGCAGCATATCGAAGAAGCTGGCCATCCAGCCGGGGATTAGCAAGTTCGCGACTGCAGTGATCGGGGGTTAGAAAGTGCGAGTACCAGGATGCAAACGTGGTTCGTCGGTCTTTCTAAAACCCGCCTGTCCCCCCGCCCCCACACTCTATGGTACACTTGCCCTTTCATTCATTCTTTCTTCCTTTCTTTCCTTTTTTTTTCCGCCCAAAATCCTCGGGCTTCGGGCACTCGGACTCAGGAGCAACTCTTCTATCCCGTAGTCAATCACTTAATCACTTGCAACTGGATCAATAGTTTCTCAAGTCGTCGGC (double strand) [PoxCxrA promoter 300 bp] | binds | – | – |
| GAGAGATCCACTACCCGCAAAATCTGGGGAGCTTCCTCCGTGTCCGCGGAGTGCGTGCTGGCAGGCATTCCATTTTCGTGCATGACTGAGATGAACTTCACCCCCTGGGGCTATGCACAGTGGTGCGGACCGCCACGCCGTGGATGTCCATCCCAAAAGGAAATCAGTCGAGAGGCGAATTGCTTCAGGATCCACCCAAGGAAGCAACTATATAAGAAGAGGTGCCATCACCTCGACTCTGGTGTTCATCATCCATTCCTTCCTCATCTCCTCCACCACCCCCCTTTCATCAGATCCTCAAAGAACAAAATTGATCATCATCTCTTTTGATCTTTGATCCAATCCATCACA (double strand) [POX05587/Cel7A-2 promoter 300 bp] | binds | – | binding result [2]: binds; binding result [3]: binds; binding result [4]: binds; binding result [5]: binds |
